Values from PubChem BioAssay AID624099 (ICCB-Longwood, 2012).
Screen: 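Human genes that papillomavirus E2 requires to repress the HPV18 LCR promoter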 (primary screen). Cell system: human C33A cervical carcinoma cells (HPV-negative) stably expressing BPV1 E2 and an HPV18 LCR luciferase reporter. Reagents: siRNA pool against human genes, 40 nM. Time to read-out: 72 h. Read-out: 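HPV18 LCR reporter light per well, converted to plate-wise z-scores that exclude control wells, and averaged over triplicate plates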. Scale: mean z-score and z-score: higher = stronger reporter signal, weaker E2 silencing. Hit rule: 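Mean z ≥ 2 together with z ≥ 2 in two or more of the three replicates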.
This is an unselected part of about 21,000 reagents tested. In the full data, 497 (2.4%) are marked active. 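Higher z means weaker E2 silencing; only reporter increases were scored, and knock-downs that hurt cell survival may mask genuine repressor factors.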 Reagent sequences are not shown.

gene symbol | PubChem SID | mean z-score | z-score, replicate A | z-score, replicate B | z-score, replicate C | Call
NYNRIN (NYN domain and retroviral integrase containing) | SID134328476 | -0.32 | -0.82 | -0.29 | 0.14 | inactive
ZNF286A (zinc finger protein 286A) | SID134324366 | 1.02 | 1.18 | 1.34 | 0.55 | inactive
AHCTF1 (AT-hook containing transcription factor 1) | SID134318155 | 0.3 | 0.37 | 0.44 | 0.1 | inactive
NANOS1 (nanos C2HC-type zinc finger 1) | SID134326877 | 0.16 | 0.11 | 0 | 0.38 | inactive
NAV2-AS5 (NAV2 antisense RNA 5) | SID134328310 | -0.16 | -0.03 | -0.53 | 0.07 | inactive
RASGRP2 (RAS guanyl releasing protein 2) | SID134314120 | -0.03 | 0.09 | -0.28 | 0.1 | inactive
METTL25B (methyltransferase like 25B) | SID134320825 | -0.06 | -0.34 | 0.11 | 0.06 | inactive
PRSS1 (serine protease 1) | SID134311431 | 0.37 | 0.46 | 0.3 | 0.34 | inactive
DENND2D (DENN domain containing 2D) | SID134320567 | 0.49 | 0.38 | 0.24 | 0.84 | inactive
KIAA0930 | SID134326123 | 0.15 | -0.07 | 0.51 | 0 | inactive
GHSR (growth hormone secretagogue receptor) | SID134310956 | -0.43 | -0.09 | -0.69 | -0.51 | inactive
LOC340246 (retired record) | SID134326294 | 0.47 | 0.64 | 0.36 | 0.4 | inactive
MYO1B (myosin IB) | SID134325609 | 0.33 | 0.12 | 0.58 | 0.3 | inactive
SLC12A3 | SID134312432 | 0.45 | 0.3 | 0.59 | 0.47 | inactive
NANOS3 (nanos C2HC-type zinc finger 3) | SID134329010 | 0.35 | 0.56 | 0.17 | 0.31 | inactive
NCAPD3 (non-SMC condensin II complex subunit D3) | SID134326584 | -0.24 | -0.81 | -0.13 | 0.22 | inactive
UBFD1 (ubiquitin family domain containing 1) | SID134324788 | -0.64 | -0.64 | -0.74 | -0.55 | inactive
SLC1A1 | SID134312473 | 0.2 | 0.06 | 0.19 | 0.36 | inactive
TEX13A (testis expressed 13A) | SID134314785 | 1.6 | 1.28 | 1.89 | 1.64 | inactive
LOC389099 (retired record) | SID134327310 | -0.52 | -0.31 | -0.64 | -0.61 | inactive
LOC283780 (retired record) | SID134325383 | -0.06 | -0.4 | 0.14 | 0.08 | inactive
CTTNBP2 (cortactin binding protein 2) | SID134319157 | -0.13 | -0.28 | -0.36 | 0.25 | inactive
BRCA2 (BRCA2 DNA repair associated) | SID134309909 | 0.42 | 0.43 | 0.22 | 0.6 | inactive

Reformatted: 3 of the entries above.
gene symbol,PubChem SID,mean z-score,"z-score, replicate A","z-score, replicate B","z-score, replicate C",Call
NCAPD3 (non-SMC condensin II complex subunit D3),SID134326584,-0.24,-0.81,-0.13,0.22,inactive
UBFD1 (ubiquitin family domain containing 1),SID134324788,-0.64,-0.64,-0.74,-0.55,inactive
SLC1A1,SID134312473,0.2,0.06,0.19,0.36,inactive
